Results of unrelated studies side by side (data: NIAID ChemDB).

All rows: target-level tests; organism: HIV-1; protein: Integrase; measure: IC50

a–b is a range or a potency band.

compound,method,result
CC(=O)N1CCc2nc(C(=O)NCc3ccc(F)cc3)c(O)c(=O)n2CC1,ELISA,<10 µM
O=C(O)/C(O)=C/C(=O)N(Cc1ccc(F)cc1)Cc1ccc2ccccc2c1,strand transfer,<70 µM
CN(C)CC1c2nc(C(=O)NCc3ccc(F)cc3)c(O)c(=O)n2CCN1C(=O)C(=O)N(C)C,ELISA,<10 µM
O=C1c2c(O)c(=O)n(C3CCCCCC3)c(=O)n2CCN1Cc1ccc(F)cc1,strand transfer,<10 µM
CC(=O)N1CCn2c(nc(C(=O)NCc3ccc(F)cc3)c(O)c2=O)C(N(C)Cc2ccccc2)C1,ELISA,<10 µM
O=C(O)/C(O)=C/C(=O)N(Cc1ccc(F)cc1)Cc1ccc(F)c(F)c1,strand transfer,<70 µM
O=C1c2c(O)c(=O)n(-c3ccc(N4CCCCC4)cc3)c(=O)n2CCN1Cc1ccc(F)cc1,strand transfer,<10 µM
O=c1ccn2ccn(C/C=C/c3ccccc3)c(=O)c2c1O,ELISA,0.01–0.1 µM
CN(C)C(=O)C(=O)N(C)C1CN(S(C)(=O)=O)CCn2c1nc(C(=O)NCc1ccc(F)cc1)c(O)c2=O,ELISA,<10 µM
O=C1c2c(O)c(=O)c(-c3nccs3)cn2CCN1CCCc1ccccc1,ELISA,0.01–0.1 µM
CC(c1ccccn1)n1c(=O)c(O)c2n(c1=O)CCN(Cc1ccc(F)cc1)C2=O,strand transfer,<10 µM
CC(=O)Nc1cn2ccn(Cc3ccc(F)c(Cl)c3)c(=O)c2c(O)c1=O,ELISA,<0.01 µM
CN(C)CC(=O)N1CCn2c(nc(C(=O)NCc3ccc(F)cc3)c(O)c2=O)C1(C)C,ELISA,<10 µM
COCCNC(=O)c1cn2ccn(Cc3ccc(F)cc3)c(=O)c2c(O)c1=O,ELISA,0.01–0.1 µM
CN(Cc1ccc(Cl)c(Cl)c1)C(=O)/C=C(\O)C(=O)O,strand transfer,<70 µM
O=c1c(O)c2c(=O)n(Cc3cccc(Cl)c3)ccn2c2ccccc12,ELISA,0.01–0.1 µM
O=C(O)/C(O)=C/C(=O)N(CCc1ccccc1)Cc1ccccc1,strand transfer,<70 µM
CC(C)(C)Cc1cn2ccn(Cc3cccc(Cl)c3)c(=O)c2c(O)c1=O,ELISA,0.01–0.1 µM
O=C(O)/C(O)=C/C(=O)N(Cc1ccc(F)cc1)Cc1ccc(F)cc1,strand transfer,<70 µM
CC(O)c1cn(Cc2cccc(Cl)c2)c(=O)c2c(O)c(=O)ccn12,ELISA,0.01–0.1 µM
O=C1c2c(O)c(=O)n(C3CCC(O)CC3)c(=O)n2CCN1Cc1ccc(F)cc1,strand transfer,<10 µM

The first 3 rows once more:

compound,method,result
CC(=O)N1CCc2nc(C(=O)NCc3ccc(F)cc3)c(O)c(=O)n2CC1,ELISA,<10 µM
O=C(O)/C(O)=C/C(=O)N(Cc1ccc(F)cc1)Cc1ccc2ccccc2c1,strand transfer,<70 µM
CN(C)CC1c2nc(C(=O)NCc3ccc(F)cc3)c(O)c(=O)n2CCN1C(=O)C(=O)N(C)C,ELISA,<10 µM

Rows are shuffled and stem from different studies. ICn: concentration for n% inhibition.